Pooled drug test results. Numbers come from NIAID ChemDB, via PubChem.

Common to all: tests in culture; agent: Candida krusei

Conditions beyond the fields shown may differ between rows. MIC50, MIC90 and the like: level of inhibition, or share of isolates inhibited. Inhibition is in % at the dose shown (toxicity tests: loss of growth or viability). Blank or dashed fields: not listed here.

{"smiles": "O=C1O/C(=C\\c2ccc(OCC(O)(Cn3cncn3)c3ccc(F)cc3F)cc2)C(c2ccc(F)cc2F)=C1c1ccc(Cl)cc1", "read by": "broth dilution", "endpoint": "MIC50", "strain or isolate": "ATCC 6258", "result": "4 µg/mL"}
{"smiles": "CCC(C)CC(C)CCCCCCCCC(=O)N[C@H]1C[C@@H](O)[C@H](NCCN)NC(=O)[C@@H]2[C@@H](O)CCN2C(=O)[C@H]([C@H](O)CCN)NC(=O)[C@H]([C@H](O)[C@@H](O)c2ccc(O)cc2)NC(=O)[C@@H]2C[C@@H](O)CN2C(=O)[C@H]([C@@H](C)O)NC1=O", "read by": "broth dilution", "endpoint": "MIC50", "strain or isolate": "DPL45", "result": "8 µg/mL"}
{"smiles": "CCCCCCCCCCCCCCn1cc[n+](COCCCCCCOC[n+]2ccn(CCCCCCCCCCCCCC)c2)c1", "read by": "agar diffusion", "endpoint": "MIC100", "strain or isolate": "ATCC 6258", "result": "2 µM"}
{"smiles": "Clc1ccc(C(c2ccccc2)N2CCN(CCn3ccnc3)CC2)cc1", "read by": "agar", "endpoint": "MIC90", "result": ">256 µg/mL"}
{"smiles": "CCCCCn1cc[n+](COCCCCCOC[n+]2ccn(CCCCC)c2)c1", "read by": "agar diffusion", "endpoint": "MIC100", "strain or isolate": "ATCC 6258", "result": "8 µM"}
{"smiles": "C=CCc1ccc(O)c(OC)c1", "read by": "turbidity", "endpoint": "MIC90", "strain or isolate": "191", "result": "500 µg/mL"}
{"smiles": "O=C1OCC(c2cccs2)=C1c1ccc(OCC(O)(Cn2cncn2)c2ccc(F)cc2F)cc1", "read by": "broth dilution", "endpoint": "MIC50", "strain or isolate": "ATCC 6258", "result": "8 µg/mL"}
{"smiles": "CC(C)(O)c1cn(-c2ccc([N+](=O)[O-])cc2)nn1", "read by": "broth dilution", "dose": "2048 µg/mL", "endpoint": "inhibition", "strain or isolate": "URM 1059", "result": "0%"}
{"smiles": "C[n+]1ccn(COCCCCCOCn2cc[n+](C)c2)c1", "read by": "agar diffusion", "endpoint": "MIC100", "strain or isolate": "ATCC 6258", "result": "109 µM"}
{"smiles": "CC(C)(O)c1cn(-c2cccc3ccccc23)nn1", "read by": "broth dilution", "dose": "2048 µg/mL", "endpoint": "inhibition", "strain or isolate": "URM 1059", "result": "0%"}
{"smiles": "O=C(c1ccccc1)C(c1ccccc1)n1cncn1", "read by": "agar", "endpoint": "MIC90", "result": ">256 µg/mL"}
{"smiles": "COc1cc(C=O)cc(OC)c1OCC(O)(Cn1cncn1)c1ccc(F)cc1F", "read by": "broth dilution", "endpoint": "MIC50", "strain or isolate": "ATCC 6258", "result": "128 µg/mL"}
{"smiles": "c1ccc(C(c2ccccc2)n2cncn2)cc1", "read by": "agar", "endpoint": "MIC90", "result": ">256 µg/mL"}
{"smiles": "O=C(O)Cc1ccc(OCC(O)(Cn2cncn2)c2ccc(F)cc2F)cc1", "read by": "broth dilution", "endpoint": "MIC50", "strain or isolate": "ATCC 6258", "result": "128 µg/mL"}
{"smiles": "C[n+]1ccn(COCCCOCn2cc[n+](C)c2)c1", "read by": "agar diffusion", "endpoint": "MIC100", "strain or isolate": "ATCC 6258", "result": "0.237 µM"}
{"smiles": "CC(C)(O)c1cn(-c2ccc3ccccc3c2)nn1", "read by": "broth dilution", "dose": "2048 µg/mL", "endpoint": "inhibition", "strain or isolate": "URM 934", "result": "0%"}
{"smiles": "O=C(c1ccccc1)C(c1ccccc1)n1cnc2ccccc21", "read by": "agar", "endpoint": "MIC90", "result": "128 µg/mL"}
{"smiles": "CCCCCCCn1cc[n+](COCCCCCOC[n+]2ccn(CCCCCCC)c2)c1", "read by": "agar diffusion", "endpoint": "MIC100", "strain or isolate": "ATCC 6258", "result": "75 µM"}
{"smiles": "CC(C)(O)c1cn(-c2cccc([N+](=O)[O-])c2)nn1", "read by": "broth dilution", "dose": "2048 µg/mL", "endpoint": "inhibition", "strain or isolate": "URM 4802", "result": "0%"}

A second listing of 3 rows from above:

smiles	read by	dose	endpoint	strain or isolate	result
O=C1O/C(=C\c2ccc(OCC(O)(Cn3cncn3)c3ccc(F)cc3F)cc2)C(c2ccc(F)cc2F)=C1c1ccc(Cl)cc1	broth dilution		MIC50	ATCC 6258	4 µg/mL
CCCCCCCCCCCCCCn1cc[n+](COCCCCCCOC[n+]2ccn(CCCCCCCCCCCCCC)c2)c1	agar diffusion		MIC100	ATCC 6258	2 µM
COc1cc(C=O)cc(OC)c1OCC(O)(Cn1cncn1)c1ccc(F)cc1F	broth dilution		MIC50	ATCC 6258	128 µg/mL